# Measurements: PMC10294627, “PhoPQ Regulates Quinolone and Cephalosporin Resistance Formation in Salmonella Enteritidis at the Transcriptional Level” (mBio, 2023)
# The exact form of at least one protein or probe is not confirmed.
# Tested on: PhoP (phosphorylated, PhoP-P)
# Experiment: EMSA
# Settings: PhoP-P 1-8 ug in 20 uL, 25 nM probe, 2 mM Mg2+, poly(dI-dC), 10 mM Tris pH 8.0, 125 mM KCl, 5% glycerin, 2 mM MgCl2, 0.01 mg/mL BSA, 1 mM DTT, 0.5 ug poly(dI-dC), 30 C 30 min, 5% native PAGE, recombinant protein, residues 1-224, protein details: N-terminal His (pET28a), label: FAM (forward primer), probe letters rebuilt from the primers and the genome
sequence,measurement,setting,value
ACAACGGTTCTACAAGCCAATAATTACAATAAAATCATAGTGATAAAAGAAAAACGATCAAATCAAAGCGAGAACTCAGGGGAAGTTTGACGTTGTTCACAAAGTTCCGCGAAAATAACATTTGTTTACATATTTTTTCCTTTTGAAACTAAATCTTTATATTTGTAGCACTTTCACGGTAGCGAAACGTTAGTTTGAATGGAAAGATGCCTGTCAGACAC (double strand) [PompF-FAM],binding result,abolished by 50x unlabeled PompF,binds
TGCCGTCTAATCTCGTCAAAGCCCGATAATGCGTTATTTATCGGGCTTTTTCATCTTCGTTCCTCGCCTGTTAGGTTTCTCCTCTTTTAGCAATTTGGGTTGTTATCAAAACGTTACATTTTGTTTGTGTTATCTTTAATACAACCCTGTGGAGAATCAGGGTAACGCAACCCTGTCATTTAAGGAGGAGCTATGTCGTCAACCCTACGAGAAGCCAGTAAGGATACATTG (double strand) [PacnA-FAM],binding result,abolished by 50x unlabeled PacnA,binds
